From PMC7002343

How the values were obtained:
Experiment in all cases: EMSA
[1] = target: T1, 6xHis-EspM(MT) (Mycobacterium tuberculosis Erdman) (UniProt P96214); details: recombinant protein; residues 46-392; protein details: 6xHis; probe letters rebuilt from the primers and the genome
T1 sequence (looked up): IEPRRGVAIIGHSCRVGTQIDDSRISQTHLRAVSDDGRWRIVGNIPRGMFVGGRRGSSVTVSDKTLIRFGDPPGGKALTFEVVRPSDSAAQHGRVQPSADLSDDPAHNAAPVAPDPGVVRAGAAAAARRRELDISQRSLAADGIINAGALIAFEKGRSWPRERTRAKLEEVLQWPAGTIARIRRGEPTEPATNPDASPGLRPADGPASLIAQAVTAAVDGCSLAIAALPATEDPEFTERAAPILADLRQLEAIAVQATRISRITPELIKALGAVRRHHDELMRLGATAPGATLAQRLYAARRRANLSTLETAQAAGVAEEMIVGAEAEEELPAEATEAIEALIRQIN

[2] = target: T2, 6xHis-EspM(CT) (Mycobacterium marinum M (ATCC BAA-535)) (UniProt B2HMS6); details: EspM EMSA: 10 mM Tris-HCl pH 8.0, 40 mM KCl, 2.5 mM DTT, 0.25% Tween-20, 0.02 mg/mL salmon sperm DNA (listed as 0.5x binding buffer), ~70 ng probe, 20-25 min at 4 C; recombinant protein; residues 149-385; protein details: 6xHis; probe letters rebuilt from the primers and the genome
T2 sequence (looked up): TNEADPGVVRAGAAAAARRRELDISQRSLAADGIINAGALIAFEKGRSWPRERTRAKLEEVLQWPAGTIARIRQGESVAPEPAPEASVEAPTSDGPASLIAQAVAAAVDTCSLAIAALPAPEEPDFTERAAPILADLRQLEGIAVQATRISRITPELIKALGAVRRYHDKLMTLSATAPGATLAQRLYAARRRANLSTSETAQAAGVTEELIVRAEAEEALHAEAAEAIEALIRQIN

[3] = target: T3, 6xHis-EspM(MM) (Mycobacterium marinum M (ATCC BAA-535)) (UniProt B2HMS6); details: EspM EMSA: 10 mM Tris-HCl pH 8.0, 40 mM KCl, 2.5 mM DTT, 0.25% Tween-20, 0.02 mg/mL salmon sperm DNA (listed as 0.5x binding buffer), ~70 ng probe, 20-25 min at 4 C; recombinant protein; residues 23-385; protein details: N-terminal 6xHis; probe letters rebuilt from the primers and the genome
T3 sequence (looked up): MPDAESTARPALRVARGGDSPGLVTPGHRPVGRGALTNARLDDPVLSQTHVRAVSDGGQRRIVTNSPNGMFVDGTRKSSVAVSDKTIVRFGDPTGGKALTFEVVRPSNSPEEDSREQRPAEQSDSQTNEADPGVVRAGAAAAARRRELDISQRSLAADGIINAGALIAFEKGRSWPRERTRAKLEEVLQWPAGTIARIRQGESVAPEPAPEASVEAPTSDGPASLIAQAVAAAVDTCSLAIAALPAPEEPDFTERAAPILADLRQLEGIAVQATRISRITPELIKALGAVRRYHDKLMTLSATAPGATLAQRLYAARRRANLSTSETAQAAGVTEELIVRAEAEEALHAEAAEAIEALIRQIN

[4] = target: T4, 6xHis-EspM(NT) (Mycobacterium marinum M (ATCC BAA-535)) (UniProt B2HMS6); details: EspM EMSA: 10 mM Tris-HCl pH 8.0, 40 mM KCl, 2.5 mM DTT, 0.25% Tween-20, 0.02 mg/mL salmon sperm DNA (listed as 0.5x binding buffer), ~70 ng probe, 20-25 min at 4 C; recombinant protein; residues 23-155; protein details: 6xHis; probe letters rebuilt from the primers and the genome
T4 sequence (looked up): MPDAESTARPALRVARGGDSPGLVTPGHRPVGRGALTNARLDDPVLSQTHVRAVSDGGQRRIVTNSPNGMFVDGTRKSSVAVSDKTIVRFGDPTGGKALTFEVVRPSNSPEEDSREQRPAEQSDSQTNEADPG

[5] = system: T5, WhiB6(MM)-6xHis (Mycobacterium marinum M (ATCC BAA-535)); details: WhiB6 buffer: 40 mM HEPES pH 7.5, 50 mM KCl, 2 mM MgCl2, 0.01 mM EDTA; EspM EMSA: 10 mM Tris-HCl pH 8.0, 40 mM KCl, 2.5 mM DTT, 0.25% Tween-20, 0.02 mg/mL salmon sperm DNA (listed as 0.5x binding buffer), ~70 ng probe, 20-25 min at 4 C; recombinant protein; residues 1-95; protein details: C-terminal 6xHis; probe letters rebuilt from the primers and the genome
T5 sequence (looked up): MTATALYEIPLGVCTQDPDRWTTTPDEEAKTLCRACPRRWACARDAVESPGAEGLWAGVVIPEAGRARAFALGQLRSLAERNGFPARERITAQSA

| Sequence | binding result [1] | binding result [2] | binding result [3] | binding result [4] | binding result [5] |
| --- | --- | --- | --- | --- | --- |
| CCTCTGCCTGCCTAGCGGTGCTGCGGCTCCGGTTCGGCGAGCTCCGAGCTCTAGTGCGCGCACCGCCGAGTACCAGGGCATAGATCCTGTTAATCAGCTGTGTATCTGGCCTCGCCGGCGCGTATCCGACCCCTTCGGGCAGATCTTCCAGGAAAAGTGTTCTGACATGCGACAGTTCAGGTGTGAAGTGAACTGTAGCGGCAGTTCGGTTTGGCTAGGAAACTATTTCCATAGCGGGCCGTCGCGTCGCTAGATCCAAAATGTAGCGAAGTCATAGCAGTAGAAGGGTGCAACGGTTAGGATGGCGGGCGAGCGGAAAGTCTGCCCACCGTCCCGGCTAGTACCCGCGAATAAGGGATCAACGCAGATGTCTAAAGCAGGGTCGACTGTCGGACCGGCGCCGCTGGTCGCGTGCAGCGGCGGCACATCAGACGTGATTGAGCCCCGTCGCGGTGTCGCGATCATTGGCCACTCGTGCCGAGTCGGCACCCAGATCGACGATTCTCGAATCTCTCAGACACATCTGCGAG (double strand) [whiB6(MT) promoter EMSA probe] | binds | – | – | – | – |
| GTTGCAGGTTCGTAACCTCTGCCCGAGGATCGTATAGCACTAACCGTCGCAGTGCAACAGTTCCCGATGCAGGGCCGCACACCCTCCTGCTACAACTTCGCTGCGCGATGGGCCATGATAAGCATCTAACCTGGCATAACCAGCGGTAATTAGCTGTCAATCGGCTGGGTGACACGGCGCTCCGCCAACCCCGACGCACACCCTTCCGGACAGAAACTGTTCCACTGCGCAATGCTTCGGGGTAGGATCAAACGTAGCGGTGGCCCGGTTTAACCAGACAACGGTCGCTTCGGAACCCCGCTGGATGTCGTTCAAGAAACGTAGCGAAGGCATACCAATGGAAGGGTGCAACGGTTAGGATGTTGGTCAGCGGAACGCGCGCCTTGCCACCCGCCTCAGTAGCCGCGAGCGAGGAATCGACGTACATGCCCGACGCCGAATCGACTGCTCGGCCGGCCCTGCGAGTCGCCCGTGGCGGCGACTCACCGGGCCTGGTAACGCCCGGTCACCGACCCGTCGGCCGCGGCGCGCTGACCAACGCACGACTGGATGATCCCGTGTTATC (double strand) [whiB6 promoter EMSA probe (whiB6-espM intergenic)] | – | binds | binds | no binding | binds |

For some assays here: A negative result means that nothing was seen under these conditions. Where a protein sequence is shown, tags need not be part of it.
